PubChem BioAssay AID504761, Drosophila RNAi Screening Center – 2011

- Assay: 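Insect host genes that dengue virus relies on to spread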 (primary screen)
- System: D.Mel-2 cells from Drosophila
- Knock-down reagent: long dsRNA against Drosophila genes
- Challenge: infection with dengue virus type 2; dose and infection time not stated
- Detection: 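Cells stained for dengue envelope protein and imaged; percent of infected cells per well on duplicate plates, ranked by infection, with stained nuclei counted for cell number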
- Reading the numbers: infection score: higher = more virus-infected cells; cell count: higher = more cells in the well
- Hit rule: 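Very low infection ranking in both replicate wells (chance probability at most 0.065), then a retest showing infection dropped 1.5-fold or more at p below 0.05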
- Calls: active = confirmed: knock-down lowers infection; inactive = not picked or not confirmed
The screen tested about 22,000 reagents; shown is a random part of those that have a named target and a result. Over the whole deposit, 116 (0.52%) were called active. 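Calls depend on retest data that are not deposited; infection was ranked per plate without normalising between plates; the unit of the infection score is not given.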 The raw values are shown without normalisation. No sequences are given here. The record does not give: the amount of reagent, the time to read-out.

| gene | DRSC id | infection score, replicate 1 | infection score, replicate 2 | cell count, replicate 1 | cell count, replicate 2 | Outcome |
| --- | --- | --- | --- | --- | --- | --- |
| CG8230 | DRSC05931 | 14.3 | 6.25 | 4659 | 1280 | inactive |
| dlg1 | DRSC18896 | 4.5 | 1.87 | 6071 | 6519 | inactive |
| dlg1 | DRSC19767 | 1.78 | 1.73 | 6591 | 6662 | inactive |
| dlg1 | DRSC20324 | 1.44 | 5.66 | 6385 | 6021 | inactive |
| dlg1 | DRSC29546 | – | 8.46 | 305 | 6123 | inactive |
| CG11977 | DRSC14454 | 2.02 | 9.25 | 6822 | 6506 | inactive |
| CG12910 | DRSC06225 | 6.69 | 5.15 | 6365 | 5961 | inactive |
| tbrd-2 | DRSC07020 | 4.85 | 3.38 | 6023 | 6450 | inactive |
| Itgbn | DRSC03493 | 11.9 | 1.68 | 4606 | 6983 | inactive |
| Arr2 | DRSC09670 | 1 | 1.14 | 5994 | 6495 | inactive |
| ASPP | DRSC23069 | 1.34 | 9.77 | 6119 | 6200 | inactive |
| wake | DRSC16148 | 1.47 | 5.19 | 6333 | 5222 | inactive |
| wake | DRSC16149 | 1.95 | 2.64 | 6153 | 5757 | inactive |
| CG13114 | DRSC02212 | 12.8 | 3.45 | 1707 | 666 | inactive |
| CG32195 | DRSC09533 | 2.13 | 0.93 | 6252 | 5934 | inactive |
| Dhc93AB | DRSC16644 | 5 | 4.33 | 2599 | 6679 | inactive |
| Dhc93AB | DRSC28116 | 26.4 | 6.49 | 5114 | 5843 | inactive |
| CG15877 | DRSC08485 | 3.33 | 3.54 | 6011 | 6530 | inactive |
| CG5861 | DRSC02907 | 4.98 | 11 | 1585 | 5074 | inactive |
| CG8564 | DRSC10997 | 12.1 | 5.47 | 6021 | 6360 | inactive |
| tth | DRSC19435 | 6.19 | 30.4 | 6642 | 2464 | inactive |
| tth | DRSC25120 | 2.58 | 6.58 | 6625 | 6640 | inactive |
| bumpel | DRSC16100 | 4.36 | 5.08 | 6809 | 6532 | inactive |
| Pld3 | DRSC03167 | 3.68 | 13.5 | 6113 | 2657 | inactive |
| spdo | DRSC13988 | 0.81 | 1.54 | 6167 | 6029 | inactive |
| spdo | DRSC24230 | 7.63 | 3.41 | 6321 | 5979 | inactive |
| ocm | DRSC04360 | 10.9 | 27.5 | 5978 | 3382 | inactive |
| ocm | DRSC26248 | 9.51 | 3.68 | 6065 | 6256 | inactive |
| mth | DRSC08725 | 15.1 | 12.6 | 6849 | 6750 | inactive |
| eIF4G1 | DRSC17218 | 7.71 | 13.1 | 6924 | 6816 | inactive |
| eIF4G1 | DRSC29786 | 21.1 | 14.3 | 5702 | 5888 | inactive |
| CG40006 | DRSC03787 | 2.57 | 4.72 | 6253 | 5951 | inactive |
| CG40006 | DRSC03809 | 4.3 | 2.61 | 6368 | 6204 | inactive |
| CG40006 | DRSC03814 | 0.28 | 0.11 | 6745 | 6440 | inactive |
| CG40006 | DRSC03817 | 6.54 | 7.05 | 6084 | 5969 | inactive |
| Vps37B | DRSC12165 | 1.26 | 3.72 | 6449 | 6211 | inactive |
| CG32267 | DRSC21561 | 2.42 | 3.53 | 6038 | 5953 | inactive |
| CG32267 | DRSC27104 | 10.5 | 11.6 | 6657 | 6752 | inactive |
| CG43322 | DRSC02280 | 6.01 | 2.64 | 2646 | 721 | inactive |
| CG43322 | DRSC27089 | 8.69 | 1.82 | 6412 | 6808 | inactive |
| CG8851 | DRSC00718 | 2.02 | 4.39 | 6348 | 6375 | inactive |
| CG8851 | DRSC29343 | 10.9 | 8.86 | 5430 | 5170 | inactive |
| yem | DRSC14865 | – | 4.65 | 371 | 6748 | inactive |
| yem | DRSC17097 | 1.92 | 2.58 | 884 | 6539 | inactive |
| Ubc7 | DRSC20299 | 5.81 | 2.24 | 3184 | 3120 | inactive |
| CR31822 | DRSC01510 | 1.05 | 4.43 | 5740 | 5353 | inactive |
| Exo70 | DRSC10774 | 2.59 | 3.29 | 5635 | 6295 | inactive |
| CG31681 | DRSC00107 | 9.63 | 8.23 | 5806 | 6003 | inactive |
| CG31681 | DRSC25893 | 5.43 | 3.38 | 6505 | 5774 | inactive |
| CG6972 | DRSC16159 | 1.8 | 2.15 | 6279 | 6091 | inactive |
| CG6972 | DRSC29649 | 1.2 | 25.4 | 666 | 5832 | inactive |
| heph | DRSC14082 | 0.88 | 0.24 | 6561 | 6613 | inactive |
| heph | DRSC14085 | 3.66 | 0.86 | 6171 | 6186 | inactive |
| heph | DRSC16783 | 9.46 | 8.96 | 5529 | 4063 | inactive |
| CG43795 | DRSC04192 | 6.73 | 13.3 | 6718 | 6871 | inactive |
| CG43795 | DRSC04193 | 18.8 | 14.3 | 4448 | 4357 | inactive |
| CG43795 | DRSC04194 | 12.7 | 3.2 | 6346 | 6756 | inactive |
| CG43795 | DRSC04309 | 2.74 | 7.82 | 6608 | 6766 | inactive |
| CG43795 | DRSC04310 | 10.2 | 10.8 | 6726 | 7111 | inactive |
| CG43795 | DRSC22826 | 1.14 | 15.4 | 6665 | 4085 | inactive |
| CG43795 | DRSC26752 | 3.39 | 12.9 | 6307 | 6184 | inactive |
